Data set [1] deals with IE86 (IE2) C-terminal fragment (Human cytomegalovirus). Description: binding assay. Conditions: FPLC; concatemer enhances IE86 sequestration relative to 1x; purified recombinant protein.
The test system is the same in data set [2]. Description: EMSA. Conditions: 0-20 uM protein, 30 min room temperature; competed by 20-fold unlabeled crs used as specificity test; purified recombinant protein; label: DIG (EMSA).

For at least one entry, the source does not settle the construct or the ends of the probe.

For the sequence “CGTTTAGTGAACCGCGCGCGCGTTTAGTGAACCG (double strand) [C-DOTC (2x) concat]”, the binding result in data set [1] was “binds”.

Turning to “TAATACGACTCACTATAGGGCGAATTGGAGCTCGTTTAGTGAACCGTCAGATCTCTAGAAGCTT (double strand) [crs EMSA probe / 64 bp crs DNA]”, the binding result in data set [2] was “binds”.

These data come from patent US20210395746, “COMPOSITIONS FOR HERPESVIRUS TRANSCRIPTIONAL FEEDBACK CIRCUIT DISRUPTION AND USES THEREOF” (The J. David Gladstone Institutes, a testamentary trust …, published 2021).
